Test results reported in patent US10167299B2, “1-(3-aminopropyl) substituted cyclic amine compounds, preparation method therefor, and pharmaceutical compositions and uses thereof” (SHANGHAI INSTITUTE OF MATERIA MEDICA, CHINESE ACADEMY OF …, priority 2013, dated 2019).

System: HIV-1SF162 virus strain
Assay: Inhibition activity on TZM-bl cells infected with HIV-1SF162
Conditions: TZM-bl cells infected with HIV-1SF162, conclusion from Table 3

With “4-ethyl-N-[(1S)-3-[exo-3-(3-isopropyl-5-methyl-4H-1,2,4-triazol-4-yl)-8-azabicyclo[3.2.1]octane-8-yl]-1-(thiophen-3-yl)propyl]cyclopentane-1-carboxamide [Compound 20]” the “cytotoxicity in vitro and therapeutic index in words, versus positive control compound” value was “comparable with the positive control compound”.
